Data as given in PubChem BioAssay AID624099 (ICCB-Longwood, 2012)
Here is one part, drawn at random, of about 21,000 reagents. Of all reagents, 497 (2.4%) got an active call. 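Higher z means weaker E2 silencing; only reporter increases were scored, and knock-downs that hurt cell survival may mask genuine repressor factors.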 A number with no mark means an inactive call. The numbers tell different reagents against one gene apart.

Test: 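Knock-downs relieving repression by E2 of an HPV18 LCR luciferase reporter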 (primary screen)
Cells: human C33A cervical carcinoma cells (HPV-negative) stably expressing BPV1 E2 and an HPV18 LCR luciferase reporter
Knock-down reagent: siRNA pool against human genes, 40 nM
Time to read-out: 72 h
Measurement: 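Per-well luciferase luminescence, z-scored on each plate against the plate mean and SD with control wells left out, then averaged across three replicate plates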
Direction: mean z-score and z-score: higher = stronger reporter signal, weaker E2 silencing
Active means: 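Hit if mean z-score reaches 2 and two or more of three replicate z-scores also reach 2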

gene,reagent no.,mean z-score,"z-score, replicate A","z-score, replicate B","z-score, replicate C"
HTRA2 (HtrA serine peptidase 2),1,-0.5,-0.66,-0.41,-0.42
PLAC8 (placenta associated 8),1,-0.48,-0.11,-0.7,-0.65
FJX1 (four-jointed box kinase 1),1,0.19,0.01,0.2,0.36
DKK2 (dickkopf Wnt signaling pathway inhibitor 2),1,-0.62,-0.29,-0.46,-1.1
ZP2 (zona pellucida glycoprotein 2),1,0.77,0.81,0.69,0.8
TAAR1 (trace amine associated receptor 1),1,1.06,0.95,1.02,1.2
TMEM209 (transmembrane protein 209),1,0.19,-0.06,0.07,0.55
TNFSF13 (TNF superfamily member 13),1,0.02,-0.18,0.16,0.09
FRAT2 (FRAT regulator of Wnt signaling pathway 2),1,0.11,0.28,-0.11,0.16
LINC01567 (long independently transcribed non-coding RNA 1567),1,-0.3,-0.26,-0.34,-0.29
LPAR1 (lysophosphatidic acid receptor 1),1,0.12,0.19,0.25,-0.09
NDUFV2 (NADH:ubiquinone oxidoreductase core subunit V2),1,1.89,1.74,2.51,1.43
LUZP4 (leucine zipper protein 4),1,0.96,1.11,0.49,1.27
FAM43B (family with sequence similarity 43 member B),1,-0.35,-0.42,-0.29,-0.33
NOC2L (NOC2 like nucleolar associated transcriptional repressor),1,-1.41,-1.32,-1.66,-1.24
SSTR1 (somatostatin receptor 1),1,-0.02,-0.03,0.1,-0.12
TMF1 (TATA element modulatory factor 1),1,0.14,0,0.12,0.29
KCNK15 (potassium two pore domain channel subfamily K member 15),1,1.08,0.97,1.05,1.23
DAZL (deleted in azoospermia like),1,-0.48,-0.46,-0.35,-0.63
LOC388291 (retired record),1,0.52,0.68,0.02,0.85
CLTCL1 (clathrin heavy chain like 1),1,0.57,0.69,0.63,0.4
ASMTL (acetylserotonin O-methyltransferase like),1,-0.41,-0.63,-0.45,-0.17
MYL4 (myosin light chain 4),1,0.12,0.24,0.26,-0.15
HMGN5 (high mobility group nucleosome binding domain 5),1,0.88,0.79,1.25,0.6

No new results follow: entries from further up.
gene,reagent no.,mean z-score,"z-score, replicate A","z-score, replicate B","z-score, replicate C"
FRAT2 (FRAT regulator of Wnt signaling pathway 2),1,0.11,0.28,-0.11,0.16
LINC01567 (long independently transcribed non-coding RNA 1567),1,-0.3,-0.26,-0.34,-0.29
LPAR1 (lysophosphatidic acid receptor 1),1,0.12,0.19,0.25,-0.09
NDUFV2 (NADH:ubiquinone oxidoreductase core subunit V2),1,1.89,1.74,2.51,1.43
LUZP4 (leucine zipper protein 4),1,0.96,1.11,0.49,1.27

The results go on:
gene,reagent no.,mean z-score,"z-score, replicate A","z-score, replicate B","z-score, replicate C"
SPMIP10 (sperm microtubule inner protein 10),1,-1.75,-1.72,-1.6,-1.94
"CNST (consortin, connexin sorting protein)",1,-2.02,-1.97,-1.95,-2.15
ARID5A (AT-rich interaction domain 5A),1,-0.67,-0.77,-0.57,-0.68
FEM1C (fem-1 homolog C),1,-0.9,-0.98,-0.83,-0.89
KBTBD8 (kelch repeat and BTB domain containing 8),1,-0.25,-0.37,-0.01,-0.36
HOXB13 (homeobox B13),1,0.39,0.43,0.38,0.36
LOC400053 (retired record),1,-1.19,-1.05,-1.01,-1.51
XPNPEP2 (X-prolyl aminopeptidase 2),1,0.92,0.64,0.86,1.25
MAP4K4 (mitogen-activated protein kinase kinase kinase kinase 4),1,-1.08,-1.23,-1.24,-0.78
TRA2B (transformer 2 beta homolog),1,0.84,1.03,0.86,0.63
SAMD9 (sterile alpha motif domain containing 9),1,-1.1,-1.34,-1.18,-0.79
LHX4 (LIM homeobox 4),1,0.68,0.46,0.71,0.88
PRDM6 (PR/SET domain 6),1,-1.09,-0.68,-1.53,-1.05
CFAP74 (cilia and flagella associated protein 74),1,-0.18,0.06,-0.3,-0.29
CFAP74 (cilia and flagella associated protein 74),2,-0.17,0.08,-0.44,-0.14
PDE1C (phosphodiesterase 1C),1,-0.78,-0.78,-0.83,-0.73
DCLRE1B (DNA cross-link repair 1B),1,-0.05,0.21,-0.05,-0.32
ERI2 (ERI1 exoribonuclease family member 2),1,-0.01,-0.16,-0.07,0.19
AKAP17A (A-kinase anchoring protein 17A),1,-0.52,-0.54,-0.53,-0.48
SPOUT1 (SPOUT domain containing methyltransferase 1),1,0.39,0.69,0.11,0.37
SPMIP4 (sperm microtubule inner protein 4),1,-0.48,-0.39,-0.58,-0.47
DEFB129 (defensin beta 129),1,-0.7,-1.31,-0.59,-0.19
ERBB2 (erb-b2 receptor tyrosine kinase 2),1,1.79,1.96,1.78,1.63
MLLT11 (MLLT11 transcription factor 7 cofactor),1,1.52,1.58,1.26,1.74
ECSIT (ECSIT signaling integrator),1,-0.53,-0.21,-0.96,-0.42
ADGRE1 (adhesion G protein-coupled receptor E1),1,-0.72,-0.7,-0.47,-0.98
SLC36A3,1,0.05,-0.6,1.1,-0.36
CD7 (CD7 molecule),1,0.44,0.98,0.11,0.22
CAMK2A (calcium/calmodulin dependent protein kinase II alpha),1,-0.78,-1.05,-0.69,-0.59
DYNLT2B (dynein light chain Tctex-type 2B),1,-0.06,-0.08,-0.27,0.18
"B4GALT6 (beta-1,4-galactosyltransferase 6)",1,1.2,0.74,1.56,1.29
MMP12 (matrix metallopeptidase 12),1,-0.06,0.23,-0.19,-0.21
POMT1 (protein O-mannosyltransferase 1),1,-0.77,-0.94,-0.6,-0.78
KRTAP13-1 (keratin associated protein 13-1),1,-1.01,-1.44,-0.69,-0.89
PTPN1 (protein tyrosine phosphatase non-receptor type 1),1,0.35,0.44,0.25,0.37
GMPPA (GDP-mannose pyrophosphorylase A),1,0.53,0.51,0.58,0.51
PABPN1 (poly(A) binding protein nuclear 1),1,0.3,0.43,0.34,0.14
TNFRSF9 (TNF receptor superfamily member 9),1,-1.78,-1.81,-1.85,-1.69
C20orf66 (retired record),1,-0.31,-0.28,-0.2,-0.45
LOC402559 (retired record),1,-0.38,-0.09,-0.9,-0.14
AHCY (adenosylhomocysteinase),1,-1.77,-1.53,-1.54,-2.24
LOC219414 (retired record),1,0.42,0.22,0.52,0.52
LOC389385 (retired record),1,-0.57,-0.59,-1.06,-0.07
LYG2 (lysozyme g2),1,-1.8,-1.57,-1.83,-1.99
RPL6P25 (ribosomal protein L6 pseudogene 25),1,0.89,0.96,0.71,0.99
RPS12 (ribosomal protein S12),1,-1.87,-1.98,-1.75,-1.89
SLC7A6,1,-1.23,-1.29,-1.15,-1.26
LOC389233 (retired record),1,-1.89,-1.88,-1.51,-2.27
MED26 (mediator complex subunit 26),1,-3.35,-3.5,-3.49,-3.06
